PubChem BioAssay AID1259414 | Drosophila RNAi Screening Center | 2018
Aim: 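Genome-wide screen for host control of endosymbiont load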 (primary screen). Cells: Drosophila JW18 cells infected with Wolbachia. Reagent: long dsRNA against Drosophila genes, 0.25 µg dsRNA per well of a 384-well plate. Duration: 5 days. Treatment: cells persistently infected with Wolbachia before knock-down; no added drug. Read-out: 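Imaged fluorescence in situ signal for Wolbachia 23S rRNA per DAPI-counted host cell, given as a robust z-score within each plate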. Reading the numbers: Wolbachia per cell robust z: higher = more Wolbachia per host cell than the plate typical. Call rule: 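Hit when robust z is 1.5 or more, or -1.5 or less, in at least two of three replicates; excludes dsRNAs with several or no targets, genes not expressed in JW18 and well A1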.
The deposit covers about 24,000 reagents; this is a random part of those that have a named target and a result. Of all reagents, about 1,210 (5%) got an active call. 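Inactive calls also include excluded dsRNAs with several or no targets, genes unexpressed in JW18, and well A1, regardless of score.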 A plus sign joins genes that one reagent is predicted to hit. No sequences are given here.

GABA-B-R2 [DRSC14134] — Wolbachia per cell robust z, rep 1: 0.232; Wolbachia per cell robust z, rep 2: -3.9; Wolbachia per cell robust z, rep 3: -0.368; outcome: inactive
GABA-B-R2 [DRSC28127] — Wolbachia per cell robust z, rep 1: 0.127; Wolbachia per cell robust z, rep 2: 0.149; Wolbachia per cell robust z, rep 3: 0.421; outcome: inactive
cactin [DRSC20576] — Wolbachia per cell robust z, rep 1: -0.119; Wolbachia per cell robust z, rep 2: -1.43; Wolbachia per cell robust z, rep 3: -1; outcome: inactive
asRNA:CR43465 + Ucp4B [DRSC02665] — Wolbachia per cell robust z, rep 1: -0.153; Wolbachia per cell robust z, rep 2: -0.781; Wolbachia per cell robust z, rep 3: -2.03; outcome: inactive

Continued; the last 2 above are carried over.
cactin [DRSC20576] — Wolbachia per cell robust z, rep 1: -0.119; Wolbachia per cell robust z, rep 2: -1.43; Wolbachia per cell robust z, rep 3: -1; outcome: inactive
asRNA:CR43465 + Ucp4B [DRSC02665] — Wolbachia per cell robust z, rep 1: -0.153; Wolbachia per cell robust z, rep 2: -0.781; Wolbachia per cell robust z, rep 3: -2.03; outcome: inactive
CG32074 [DRSC22246] — Wolbachia per cell robust z, rep 1: 0.361; Wolbachia per cell robust z, rep 2: 0.839; Wolbachia per cell robust z, rep 3: -1.15; outcome: inactive
CG32074 [DRSC26504] — Wolbachia per cell robust z, rep 1: 0.353; Wolbachia per cell robust z, rep 2: 1.23; Wolbachia per cell robust z, rep 3: 0.447; outcome: inactive
CG42336 [DRSC05273] — Wolbachia per cell robust z, rep 1: -0.0154; Wolbachia per cell robust z, rep 2: -0.0755; Wolbachia per cell robust z, rep 3: 0.565; outcome: inactive
CG42336 [DRSC06332] — Wolbachia per cell robust z, rep 1: -2.1; Wolbachia per cell robust z, rep 2: -0.204; Wolbachia per cell robust z, rep 3: -0.0283; outcome: inactive
CG42336 [DRSC06333] — Wolbachia per cell robust z, rep 1: 0.172; Wolbachia per cell robust z, rep 2: 0.0466; Wolbachia per cell robust z, rep 3: -2.83; outcome: inactive
CG42336 [DRSC28729] — Wolbachia per cell robust z, rep 1: 0.674; Wolbachia per cell robust z, rep 2: -1.54; Wolbachia per cell robust z, rep 3: -0.684; outcome: inactive
CG42336 [DRSC29534] — Wolbachia per cell robust z, rep 1: -1.72; Wolbachia per cell robust z, rep 2: -0.549; Wolbachia per cell robust z, rep 3: -1.33; outcome: inactive
CR33629 [DRSC37838] — Wolbachia per cell robust z, rep 1: -2.13; Wolbachia per cell robust z, rep 2: -1.69; Wolbachia per cell robust z, rep 3: -0.0239; outcome: inactive
